Single amino acid changes in Zika NS2B-NS3 and viral growth

Protein: NS2B and the protease part of NS3 of Zika virus strain MR766. Positions count along the chain below; NS2B spans 2-131 and NS3 starts at 132.
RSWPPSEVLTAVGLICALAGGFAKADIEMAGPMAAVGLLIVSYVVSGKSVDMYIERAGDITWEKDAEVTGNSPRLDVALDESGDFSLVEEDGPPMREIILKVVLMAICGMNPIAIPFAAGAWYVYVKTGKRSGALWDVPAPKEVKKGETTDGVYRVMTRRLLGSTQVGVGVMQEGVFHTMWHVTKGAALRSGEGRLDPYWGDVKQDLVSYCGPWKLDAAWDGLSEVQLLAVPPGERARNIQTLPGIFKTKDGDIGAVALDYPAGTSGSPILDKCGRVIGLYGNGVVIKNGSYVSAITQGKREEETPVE

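Libraries of single mutants were passaged as virus pools on Huh-7.5 cells. Sequencing of three replicate libraries (two for positions 207-308) was averaged into one effect per change. The aim was to find sites where inhibitor-binding pockets cannot change.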

Values are log2 effects on growth: 0 is wild type, lower means poorer growth.
Substitutions are written as wild-type residue, site number, new residue.
This list holds changes to methionine only.
Position 1 still belongs to NS2A. In the paper, -1 or higher counts as tolerated.
Positions 1-103, 104-206 and 207-308 were made and measured as separate libraries.
Six mutants with high scores were retested singly and none clearly outgrew wild type, so positive values are not proof of better growth.

V50M: -1.80.
D51M: -5.76.
Y53M: -5.51.
I54M: -5.06.
E55M: -1.99.
R56M: -3.53.
A57M: -5.31.
G58M: -5.59.
D59M: -4.57.
I60M: -3.22.
T61M: -0.37.
W62M: -6.47.
E63M: -2.96.
K64M: 0.02.
D65M: -6.02.
A66M: -6.35.
E67M: -2.54.
V68M: -5.31.
T69M: -5.76.
G70M: -5.94.
N71M: -5.70.
S72M: -5.95.
P73M: -3.53.
R74M: -0.62.
L75M: -6.79.
D76M: -1.08.
V77M: -6.62.
A78M: 0.69.
L79M: -5.10.
D80M: -5.64.
E81M: -5.86.
S82M: -4.23.
G83M: -6.13.
D84M: -5.86.
F85M: -5.30.
S86M: -3.04.
L87M: -6.78.
V88M: -2.12.
E89M: -1.68.
E90M: -1.32.

A selection of 4 entries from above:

| change | log2 growth effect |
|---|---|
| E63M | -2.96 |
| A66M | -6.35 |
| T61M | -0.37 |
| E67M | -2.54 |

Data from the supplement of Ni et al. 2025, doi:10.1038/s41467-025-63602-z.